Compound potency records, mixed from different reports. Data source: NIAID ChemDB in PubChem.

All rows: tests on isolated targets; species: HIV-1; target: Reverse transcriptase; endpoint: IC50

a–b is a range or a potency band.

SMILES	strain	mutations	read by	value
CN1CCN(c2ccc3nc(-c4ccc5nc(-c6ccc(O)cc6)[nH]c5c4)[nH]c3c2)CC1			nucleotide incorporation	220 µM
CCN1c2ncccc2C(=O)N(C)c2ccc(-c3ccc[nH]3)nc21		RT-Y181C	nucleotide incorporation / radiometric	<1 µM
C[Si](C)(CCCNC(=O)c1cc(Cl)ccc1N)O[Si](C)(C)CCCNC(=O)c1cc(Cl)ccc1N				20 µM
CCOC(=O)CC(OCC)n1ccc(=O)[nH]c1=O			ELISA	0.45 µM
Cc1cn(CCC[Si](C)(O)c2ccccc2)c(=O)[nH]c1=O				>2000 µM
CCN1c2ncc(CCOc3ccc(CCC(=O)O)c4ccccc34)cc2C(=O)N(C)c2ccc(Cl)nc21		RT-V106A	nucleotide incorporation / radiometric	0.1–1 µM
O=C(/C=C/c1ccc(O)c2c1[C@H](C(=O)O[C@H](Cc1ccc(O)c(O)c1)C(=O)O)[C@@H](c1ccc(O)c(O)c1)O2)O[C@H](Cc1ccc(O)c(O)c1)C(=O)O			nucleotide incorporation	>20 µg/mL
CCN1c2ncccc2C(=O)N(C)c2ccc(-c3cn[nH]c3C)nc21		RT-Y181C	nucleotide incorporation / radiometric	<1 µM
O=C(CSC(=O)N1CCCc2cc(Cl)cc(Cl)c21)Nc1ccc(C(=O)NCc2ccccc2)cc1Cl		K103N	scintillation proximity	0.002 µM
N=C(N)c1ccc(-c2cc3ccc(C(=N)N)cc3[nH]2)cc1			nucleotide incorporation	250 µM
Oc1cc(O)c2c(c1)O[C@H](c1ccc(O)c(O)c1)[C@H](O)[C@H]2c1c(O)cc(O)c2c1O[C@H](c1ccc(O)c(O)c1)[C@H](O)C2			nucleotide incorporation	>20 µg/mL
CCOCn1c(Sc2ccccc2)c(CC)c(=O)[nH]c1=O				0.27 µM
CCN1c2ncccc2C(=O)N(C)c2ccc(-c3ccn[nH]3)nc21		RT-Y181C	nucleotide incorporation / radiometric	<1 µM
CCOC(=O)CC(OCC)n1cc(F)c(=O)[nH]c1=O			ELISA	27.1 µM
Cn1cc(C(=O)Nc2cc(C(=O)NCCCCCCCC(=O)Nc3cc(C(=O)Nc4cc(C(=O)NCCC(=N)N)n(C)c4)n(C)c3)cn2C)cc1NC(=O)CN=C(N)N			nucleotide incorporation	200 µM
CCN1c2ncc(CCOc3ccc(CC(=O)O)c4c3CCCC4)cc2C(=O)N(C)c2ccc(F)nc21		RT-V106A	nucleotide incorporation / radiometric	>1 µM
C[Si](C)(CCCSc1nc2cc(Cl)ccc2s1)O[Si](C)(C)CCCSc1nc2cc(Cl)ccc2s1				1000 µM
COc1ccc(OC)c(C/C=C(\C)CC/C=C(\C)CC/C=C(\C)CC/C=C(\C)CC/C=C(\C)CCC=C(C)C)c1			nucleotide incorporation	38.5 µM
CCN1c2ncc(CCOc3ccc(CC(=O)O)c4c3CCCC4)cc2C(=O)N(C)c2cccnc21	WT		nucleotide incorporation / radiometric	<0.1 µM
Cn1cc(C(=O)Nc2cc(C(=O)NCCC(=O)Nc3cc(C(=O)Nc4cc(C(=O)NCCC(=N)N)n(C)c4)n(C)c3)cn2C)cc1NC(=O)CN=C(N)N			nucleotide incorporation	145 µM
CCn1c2cc(=NN=[N-])ccc-2[n+](C)c(=O)c2cccnc21			nucleotide incorporation	0.085 µM
CCCc1cc(=O)oc2c3c(c4c(c12)OC(C)(C)C=C4)O[C@H](C)C[C@@H]3O		RT-Y188H	nucleotide incorporation / radiometric	34.2 µM
Cc1cc(S(N)(=O)=O)ccc1NC(=O)COc1ccccc1C(=O)c1cc(Cl)cc(C#N)c1	NNRTI-resistant	RT-Y181C	fluorescence	0.0121 µM
CCOC(CC(=O)OC)n1cc(C)c(=O)[nH]c1=O			ELISA	0.4 µM
O=C(O[C@@H]1O[C@H](CO)[C@@H](O)[C@H](O)[C@H]1O)c1cc(O)c(O)c(O)c1			nucleotide incorporation	>20 µg/mL
CCN1c2ncc(CCOc3ccc(CC(=O)O)c4ccccc34)cc2C(=O)Nc2c(C)ccnc21		RT-V106A	nucleotide incorporation / radiometric	>1 µM
CCN1C(=O)c2cccnc2N(C)c2nc(-c3ccc[nH]3)ccc21	WT		nucleotide incorporation / radiometric	<1 µM
Cn1cc(C(=O)Nc2cc(C(=O)NCC(=O)Nc3cc(C(=O)Nc4cc(C(=O)NCCC(=N)N)n(C)c4)n(C)c3)cn2C)cc1NC(=O)CN=C(N)N			nucleotide incorporation	~150 µM
CCN1c2ncccc2C(=O)N(C)c2ccc(-c3cnn(C)c3)nc21		RT-Y181C	nucleotide incorporation / radiometric	>1 µM
CCOC(CC(=O)OC)n1ccc(=O)[nH]c1=O			ELISA	1 µM
CCN1c2ncccc2C(=O)N(C)c2ccc(-c3cn[nH]c3)nc21	WT		nucleotide incorporation / radiometric	<1 µM
Cc1cn(CCC[Si](C)(C)O[Si](C)(C)CCCn2cc(C)c(=O)[nH]c2=O)c(=O)[nH]c1=O				2000 µM
O=C1OCC2OC(=O)c3cc(O)c(O)c(O)c3-c3c(O)c(O)c(O)c4c3C(=O)OC(C2OC(=O)c2cc(O)c(O)c(O)c2-c2c1cc(O)c(O)c2O)C1OC(=O)c2c-4c(O)c(O)c(O)c2[C@H]1O			nucleotide incorporation	>20 µg/mL
COc1ccc(/C=C/CSc2nc([C@H](C)c3c(F)cccc3F)c(C)c(=O)[nH]2)cc1		WT	RT activity / nucleotide incorporation	0.01 µM
CN1C(=O)c2cccnc2N(C2CC2)c2nc(-c3cc[nH]c3)ccc21	WT		nucleotide incorporation / radiometric	<1 µM
C=C(C)OC(=O)N1c2cc(Cl)ccc2NC(=S)C1(C)C	MN		radiometric	0.14 µM

For reference, 5 entries again:

SMILES | strain | mutations | read by | value
CCn1c2cc(=NN=[N-])ccc-2[n+](C)c(=O)c2cccnc21 |  |  | nucleotide incorporation | 0.085 µM
Cn1cc(C(=O)Nc2cc(C(=O)NCC(=O)Nc3cc(C(=O)Nc4cc(C(=O)NCCC(=N)N)n(C)c4)n(C)c3)cn2C)cc1NC(=O)CN=C(N)N |  |  | nucleotide incorporation | ~150 µM
CCCc1cc(=O)oc2c3c(c4c(c12)OC(C)(C)C=C4)O[C@H](C)C[C@@H]3O |  | RT-Y188H | nucleotide incorporation / radiometric | 34.2 µM
O=C(CSC(=O)N1CCCc2cc(Cl)cc(Cl)c21)Nc1ccc(C(=O)NCc2ccccc2)cc1Cl |  | K103N | scintillation proximity | 0.002 µM
CCOC(CC(=O)OC)n1ccc(=O)[nH]c1=O |  |  | ELISA | 1 µM

ICn is the concentration giving n% inhibition. An empty or dashed field is not shown. Neighbouring rows are from separate reports.